# How the values were obtained:
# [1] = system: Human immunodeficiency virus 1; assay: Ratio of EC50 for HIV-1 3B harboring RT K103N mutant infected in human MT4 cells to EC50 for wild type HIV-1 3B infected in human MT4 cells; format: functional
# Outline: (§1)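 Fold resistance is the EC50 against the drug-resistant strain divided by the EC50 against wild-type HIV-1 IIIB. Both values come from the same MT-4 assay: 5-day infection, MTT viability read-out, and serial fivefold compound dilutions in triplicate wells.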
# [2] = system: Human immunodeficiency virus 1; assay: Ratio of EC50 for HIV-1 3B harboring RT L100I mutant infected in human MT4 cells to EC50 for wild type HIV-1 3B infected in human MT4 cells; format: functional; outline: as §1
smiles,measurement,setting,value
O=C1Nc2ccc(Cl)cc2[C@@](C#CC2CC2)(C(F)(F)F)O1 [EFAVIRENZ],Ratio EC50,[1],28.3
same,Ratio EC50,[2],14.2

# From ChEMBL document CHEMBL1828518, “Arylazolylthioacetanilide. Part 8: Design, synthesis and biological evaluation of novel 2-(2-(2,4-dichlorophenyl)-2H-1,2,4-triazol-3-ylthio)-N-arylacetamides as potent HIV-1 inhibitors” (Eur J Med Chem, 2011)
